Protein sequences can lack the tags named with them.
Key:
Assay in all cases: Southwestern blot
EcxR = biological target: T1, EcxR (UniProt Q2GG40); conditions: recombinant protein; residues 1-108; protein details: pET32a fusion tags (rEcxR 29.6 kDa with tags); label: 32P; probe letters rebuilt from the primers and the genome
T1 sequence (looked up): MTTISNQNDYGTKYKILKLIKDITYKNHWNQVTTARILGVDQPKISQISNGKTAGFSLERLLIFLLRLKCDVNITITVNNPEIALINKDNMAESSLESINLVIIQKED

MerR = biological target: T2, MerR (UniProt Q2GHU3); conditions: recombinant protein; residues 1-126; protein details: pET32a fusion tags (32 kDa with tags); label: 32P; probe letters rebuilt from the primers and the genome
T2 sequence (looked up): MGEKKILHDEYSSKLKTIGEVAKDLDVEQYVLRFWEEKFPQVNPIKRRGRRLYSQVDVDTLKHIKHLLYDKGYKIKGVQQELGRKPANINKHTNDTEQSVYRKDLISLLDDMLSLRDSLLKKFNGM

Tr1 = biological target: T3, Tr1 (UniProt Q2GF81); conditions: recombinant protein; residues 1-213; protein details: pET32a fusion tags (41.8 kDa with tags); label: 32P; probe letters rebuilt from the primers and the …
T3 sequence (looked up): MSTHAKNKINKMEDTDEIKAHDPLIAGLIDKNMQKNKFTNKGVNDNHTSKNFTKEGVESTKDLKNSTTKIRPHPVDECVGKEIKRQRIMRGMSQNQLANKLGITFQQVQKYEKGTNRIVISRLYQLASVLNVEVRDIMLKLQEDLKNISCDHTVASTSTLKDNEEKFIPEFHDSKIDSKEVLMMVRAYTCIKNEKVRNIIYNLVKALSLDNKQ

Measured: binding result

TTGCTCAACCATAAAATAATGGGAAATTACCTTTTCTAGGAAGTTTCTCATTATTTAACAGTTAACTTTCTGTAAACTTCTAATAACAGTATTTTGTTCACTCTTCCCCTTAATAAAAATCATAAGTTTACAATAATGTCAAAAAGATTTCTTTTTAAACACATTTAAAATGGCTAAACCGTTTTCTGCTTTATTAGAATGATTCCCAAATAAATTTTAATTAATTACTGTTCCGTATTTATTAATATATGTTATAATGTAATTAAATAAGGATACTAGATTTGCTCATAATGCATGTACTGAATTTGTGATTTGAAATAACAAGACTTAAATGTCGAATTTAGCTTCTGTCCTAGTGGATAAGTACTTTAGCAAGTGGTAAAAGCAAGTCTACTCATATTTTTATTAATTAAGTAGTAAAGTTAACTATAGATTTTATTAAAATTTTTATTCTAATCACTTTAAATATCAATTACTTTTGTTGTAAATTTGAAAGAAATTTTATATTCTAGACTTGCTTTTCTTTATTTCTTTCATTATTCTTAAATTTTTATTATCTTTTATAAAAGGTTTATTAAC (double strand) [p28-Omp14 full promoter (SWB probe)]
binds: all assays above

GACTCTAGACTTTTAATTTTATTATTGCCACATGTTAAAAATAATCTAAACTTGTTTTTATTATTGCTGCAGGTAAATAAAAATAGTGGCAAAAGAATGTAGCAATAAGAGGGGGGGGGGGGGGACTAGTTTATAAGTGCTGTTTTTCTCACCTTTACACATGATACTATACTTAACCAGTTTTTTTGCTATTACTTACCTGACGTAATATATTAAATTTTCCTTACAAAAGTTACCGATATTTTATACAAAAATTTATATTCTGACTTGCTTTTATATGACACTTCTACTATTGTTAATTTATTTGTCACTATTAGGTTATATATGAATTACA (double strand) [p28-Omp19 full promoter (SWB probe)]
binds: all assays above

From article PMC9657007
